Measurements taken from article PMC7730571.

Protein sequences, listed by entry. Tags and fused reporters are not part of them. Residues count along the entry.
UniProt Q2FWG4, 20-290 limits assumed: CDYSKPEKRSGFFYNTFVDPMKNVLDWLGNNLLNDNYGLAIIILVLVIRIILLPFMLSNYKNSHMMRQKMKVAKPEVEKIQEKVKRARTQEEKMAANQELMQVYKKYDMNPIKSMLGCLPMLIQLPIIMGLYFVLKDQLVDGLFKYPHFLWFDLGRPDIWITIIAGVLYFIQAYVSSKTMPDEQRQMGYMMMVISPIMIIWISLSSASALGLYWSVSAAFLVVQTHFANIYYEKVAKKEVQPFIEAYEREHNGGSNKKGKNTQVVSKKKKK

Key:
[1] = biological target: S. aureus YidC2 (Staphylococcus aureus, UniProt Q2FWG4); test: thermal shift in bacterial lysate, immunoblot; settings: 10 μg/mL compound; vehicle Tm 61.2 °C
[2] = biological target: S. aureus YidC2 (SaYidC2) (Staphylococcus aureus, UniProt Q2FWG4); test: SPR steady-state, NTA chip with amine coupling, one-site fit; settings: pH 7.4, 25 mM NaPi, 300 mM NaCl, 0.1% DDM, 0.01% CHS, 0.05% Tween20, 2.5% DMSO

Compound `NS(=O)(=O)Nc1ccc(-n2nc(C(F)(F)F)cc2-c2ccc3c(ccc4ccccc43)c2)cc1` has a Tm [1] of 75.5 °C and a Kd [2] of 0.19 µM.
